Consider 16 test systems from the supplement of paper PMC3578754.

Fold change is the IC50 on the isolate divided by the IC50 on a reference virus; 1 = unchanged, higher = more resistant. Changes are given against the subtype B consensus. No active / inactive call. The values were gathered from many studies (numbered anew) with different assays, which the source does not name. Most viruses are clinical isolates; some are laboratory strains or clones with known resistance changes. Isolates with mixed residues are left out; stretches that were not sequenced show no change. Round top values that many isolates share are read here as limits; other very high values and 0.1 may be limits too. The protease changes I3V and N37S, insertions and deletions cannot be read from the source.

Experiment in all cases: fold change of IC50 against reference virus; higher = more resistant; Cell-culture drug susceptibility tests of virus bearing the protease of each isolate, gathered from many studies.
Compound in assay [1]: CC(C)(C)NC(=O)[C@@H]1C[C@@H]2CCCC[C@@H]2CN1C[C@@H](O)[C@H](Cc1ccccc1)NC(=O)[C@H](CC(N)=O)NC(=O)c1ccc2ccccc2n1 [saquinavir]
Compound in assay [2]: CC(C)(C)NC(=O)[C@@H]1CN(Cc2cccnc2)CCN1C[C@@H](O)C[C@@H](Cc1ccccc1)C(=O)N[C@H]1c2ccccc2C[C@H]1O [indinavir]
Compound in assay [3]: CC(C)c1nc(CN(C)C(=O)N[C@H](C(=O)N[C@@H](Cc2ccccc2)C[C@H](O)[C@H](Cc2ccccc2)NC(=O)OCc2cncs2)C(C)C)cs1 [ritonavir]
Compound in assay [4]: Cc1c(O)cccc1C(=O)N[C@@H](CSc1ccccc1)[C@H](O)CN1C[C@H]2CCCC[C@H]2C[C@H]1C(=O)NC(C)(C)C [nelfinavir]

As for “HIV-1 isolate 304 (protease changes: I62V L63P Q92E, study 127)”, the “fold change of IC50 against reference virus” value (“fold change of IC50” for short) is 0.6 in assay [1], 0.7 in assay [2], 0.9 in assay [3] and 1.1 in assay [4].
Turning to “HIV-1 isolate 893 (protease changes: I13V K20R M36I I62V L63P G73S L90M, study 57)”, the “fold change of IC50” value in assay [1] was found to be 5; in assay [2] it was 5; in assay [3] it was 8; in assay [4], 5.
Take “HIV-1 isolate 695 (protease changes: L10I I15V K20M E35D M36I I54V R57K I62V L63P A71V G73S V82A L90M, study 112)”: the “fold change of IC50” value in assay [1] worked out at 42.1; in assay [2], 48.9; in assay [3], 122; in assay [4], 80.7.
In the case of “HIV-1 isolate 1298 (protease changes: E35D, study 54)”, the “fold change of IC50” value in assay [1] was 0.7; in assay [2] it was 0.5; in assay [3] it was 0.8; in assay [4] it was 0.8.
Take “HIV-1 isolate 1057 (protease changes: L10F L24I E35D M36I M46L I54V L63P I64V V82A, study 8)”: the “fold change of IC50” value in assay [1] turned out to be 2.4; in assay [2], 9.3; in assay [3], 37.9; in assay [4], 27.4.
Taken in the same sequence, the figures for “HIV-1 isolate 234 (protease changes: G16E E35D I62V L63A, study 54)” were 0.9, 0.7, 0.8 and 0.6.
As to “HIV-1 isolate 901 (protease changes: L5F T12I I13V N37D L63P A71T V77I L90M, study 57)”, the “fold change of IC50” value in assay [1] stood at 2; in assay [2] it was 2; in assay [3], 11; in assay [4], 3.
As to “HIV-1 isolate 1363 (protease changes: E35D M36I L63P, study 89)”, the “fold change of IC50” value in assay [1], in assay [2], in assay [3] and in assay [4] was 1 each time.
Regarding “HIV-1 isolate 922 (protease changes: I15V N37C I54V I62V L63P V82A I93L, study 119)”, the “fold change of IC50” value was 0.9 in assay [1], 8.3 in assay [2], 22.1 in assay [3] and 11.5 in assay [4].
On to “HIV-1 isolate 1514 (protease changes: I13V I15N K20I M36I R41K H69K L89M, study 114)”, for which the “fold change of IC50” value in assay [1] was determined as 0.7; in assay [2], 0.5; in assay [3] it was 0.4; in assay [4] it was 0.6.
On to “HIV-1 isolate 642 (protease changes: G48V I72V T74S V82A, study 57)”, for which the “fold change of IC50” value in assay [1] was determined as 6; in assay [2] it was 9; in assay [3] it was 14; in assay [4], 11.
As to “HIV-1 isolate 1297 (protease changes: L10I I13V K20I E35D M36I I54V L63P I66F A71V V82T, study 119)”, the “fold change of IC50” value in assay [1] was 4.7; in assay [2] it was 24; in assay [3] it was 47.1; in assay [4] it was 27.1.
For “HIV-1 isolate 499 (protease changes: I13V K20I M36I R41K H69K L89M, study 114)”, the “fold change of IC50” value in assay [1] amounted to 0.6; in assay [2], 0.5; in assay [3] it was 0.5; in assay [4], 0.5.
Take “HIV-1 isolate 1293 (protease changes: L10F K20R D30N V32I M36I M46I I47V I54V L63P A71V V82A N88D L90M, study 66)”: the “fold change of IC50” value worked out at 290 in assay [1], 25 in assay [2], 275 in assay [3] and 550 in assay [4].
Turning to “HIV-1 isolate 355 (protease changes: L10F D30N I54L L63P A71V V77I N88D L90M, study 66)”, the “fold change of IC50” value worked out at 38.1 in assay [1], 3.9 in assay [2], 5.7 in assay [3] and 171 in assay [4].
On to “HIV-1 isolate 465 (protease changes: L10I I15V L24I E35D M46L I54V Q58E L63P A71V V82A Q92K, study 119)”, for which the “fold change of IC50” value in assay [1] is 12.3; in assay [2] it was 50.7; in assay [3], 128; in assay [4], 65.8.
